Test results taken from patent US10570097B2, “Antimicrobial imidazolium compounds” (AGENCY FOR SCIENCE, TECHNOLOGY AND RESEARCH, priority 2014, dated 2020).
Marks after values point to notes of the source that are not given here.

Tested on: rat red blood cells (RBCs)
Assay: Hemolysis
Format: cell-based
Conditions: HC10/GM
Method: Before these materials can be used in systemic applications, selectivity of these materials for microbial cells over mammalian cells should also be considered. Such selectivity is often determined by observation of hemolysis. Hemolysis was performed in the following manner, fresh rat red blood cells (RBCs) were diluted with PBS buffer to give an RBC stock suspension (4 vol % blood cells). A 100 μL aliquot of RBC stock was added to a 96-well plate containing […] oligomer compound stock solutions of various concentrations (serial 2-fold dilution in PBS). After 1 h incubation at 37° C., The contents of each well was pipetted into a microcentrifuge tube and then centrifuged at 4000 rpm for 5 min. Hemolytic activity was determined as a function of hemoglobin release by measuring OD576 of […] of the supernatant. A control solution that contained only PBS was used as a reference for 0% hemolysis. 100% hemolysis was measured by adding 0.5% Triton-X to the RBCs. [formula] The selectivity of the materials was also further assessed, by calculating the selectivity indices (SI), a measure and a comparison of safety and efficacies of each oligomer compound. […] Herein, the more stringent control of HC10 value was chosen over the HC50 value often reported in literature.

With c1ccc(C[n+]2ccn(Cc3ccc(C[n+]4ccn(Cc5ccc(C[n+]6ccn(Cc7ccccc7Cn7cc[n+](Cc8ccc(Cn9cc[n+](Cc%10ccc(Cn%11cc[n+](Cc%12ccccc%12)c%11)cc%10)c9)cc8)c7)c6)cc5)c4)cc3)c2)cc1 [IBN-1, reference compound] the “Selectivity Index” value was >>1000^b.

With CCCCCCCCCCCC[n+]1ccn(Cc2ccc(C[n+]3ccn(Cc4ccc(C[n+]5ccn(Cc6ccccc6Cn6cc[n+](Cc7ccc(Cn8cc[n+](Cc9ccc(Cn%10cc[n+](CCCCCCCCCCCC)c%10)cc9)c8)cc7)c6)c5)cc4)c3)cc2)c1.[Br-].[Br-].[Cl-].[Cl-].[Cl-].[Cl-] [Compound 4] the “Selectivity Index” value was 2.81.

With CCCCCCCCCCCCCC[n+]1ccn(Cc2ccc(C[n+]3ccn(Cc4ccc(C[n+]5ccn(Cc6ccccc6Cn6cc[n+](Cc7ccc(Cn8cc[n+](Cc9ccc(Cn%10cc[n+](CCCCCCCCCCCCCC)c%10)cc9)c8)cc7)c6)c5)cc4)c3)cc2)c1.[Br-].[Br-].[Cl-].[Cl-].[Cl-].[Cl-] [Compound 5] the “Selectivity Index” value was 1.15.

With CCCCCCCCCCCCCCCC[n+]1ccn(Cc2ccc(C[n+]3ccn(Cc4ccc(C[n+]5ccn(Cc6ccccc6Cn6cc[n+](Cc7ccc(Cn8cc[n+](Cc9ccc(Cn%10cc[n+](CCCCCCCCCCCCCCCC)c%10)cc9)c8)cc7)c6)c5)cc4)c3)cc2)c1.[Br-].[Br-].[Cl-].[Cl-].[Cl-].[Cl-] [Compound 6] the “Selectivity Index” value was 0.83.
